Here are results for 41 molecules from paper doi:10.1101/2025.11.04.686469, “Discovery of Host-Directed Small Molecules with Broad Anti-Leishmanial Efficacy” (bioRxiv, 2025).

In data set [1] the test system is intracellular L. donovani amastigotes. The data set can be described thus: Luminescent-based evaluation of intracellular anti-leishmanial activity in THP-1 macrophages. It counts as cell-based, Leishmania donovani. Particulars: for Selectivity 24h LC50 / Lum IC50: host-directed effect vs cytotoxicity; for Selectivity: 24h LC50 / Lum IC50 (Supplemental Table 2). As for the experimental part:
Luminescent strains, L. donovani LV82 expressing firefly luciferase (a kind gift from Dr. Abhay Satoskar, Ohio State University) and L. mexicana (NR-51210, ATCC) expressing renilla luciferase were used to evaluate the effect of the compounds in intracellular and extracellular conditions. Wild-type L. donovani LV82 (ATCC) were used for Giemsa staining based experiments. All parasites were cultured at 25°C and 5% CO2 in M199 media (Corning) supplemented with 10% FBS, 1% penicillin/streptomycin, and hemin (0.01 mg/mL), and used in experiments up to passage 15.
THP-1 cells were seeded in a 96 well plate (25,000 cells/well) overnight then differentiated with 150 nM phorbol 12-myristate 13-acetate (PMA) over 72 hours (Supplemental Figure 1). […] Briefly, promastigotes of a known cell density were resuspended in RPMI media (with 10% FBS, 1% P/S and 0.05 mM β-mercaptoethanol) and incubated with adhered THP-1 cells over 18 hours. After infection, cells were washed three times with fresh media to remove extracellular promastigotes.
Infected macrophages were then treated with compounds solubilized in DMSO ranging from 0.1-10 μM in concentrations. After 72 hours of treatment, the viability of the amastigotes within macrophages was determined using Promega firefly luminescence assay (Cat E1500) or Pierce Renilla luciferase assay (Cat 16166) for L. donovani and L. mexicana strains, respectively. Briefly, media was removed, and cells were lysed with the assay lysis buffer. The luciferase substrate was then incubated with the lysed cells for 10 min at room temperature and luminescence of live Leishmania was measured in a white opaque 96 well plate using a Biotek plate reader.

The test system is the same in data set [2]. The data set can be described thus: Image-based (Giemsa staining) evaluation of intracellular anti-leishmanial activity in bone marrow derived macrophages. It is filed as cell-based, Leishmania donovani. Particulars: for Therapeutic Index LC50 / IC50: 72hr LC50 / Giemsa IC50, L. donovani; for L. donovani Therapeutic Index LC50 / IC50: Table 3. As for the experimental part:
Bone marrow derived macrophages (BMDMs) were isolated from BALB/c mice and cultured as previously described. […] Completely differentiated BMDMs are obtained after 7 days of culture with media change every 2 days. Harvested cells were seeded onto 10 mm glass cover slips at 5 x 10^5 cells/ well of a 24 well plate in DMEM media (without LCM) and allowed to adhere overnight. […] After infection, cells were washed three times with fresh media to remove extracellular promastigotes and treated with compounds for a 72-hour incubation. BMDM cells were then washed with phosphate buffered saline, fixed with ice-cold methanol, and stained with Giemsa (5% v/v in water). The cover slips with stained cells are mounted onto glass slides and imaged on EVOS XL (100X, Thermo Fisher Scientific). Leishmania amastigotes per 100 macrophages were determined in a blinded manner.

Data set [3] relates to intracellular L. mexicana amastigotes. It counts as cell-based, Leishmania mexicana. The note with it: 72hr LC50 / Giemsa IC50, L. mexicana. As for the experimental part:
Bone marrow derived macrophages (BMDMs) were isolated from BALB/c mice and cultured as previously described. Briefly, bone marrow was harvested from long bones of mice and the isolated cells were seeded at a concentration of 2 x 10^6 cells/mL in petri dishes with RPMI media supplemented with 10% FBS, 1% Penn-Strep and 10% L929 conditioned media (LCM). Completely differentiated BMDMs are obtained after 7 days of culture with media change every 2 days. Harvested cells were seeded onto 10 mm glass cover slips at 5 x 10^5 cells/ well of a 24 well plate in DMEM media (without LCM) and allowed to adhere overnight. BMDM cells are then infected overnight with LV82 L. donovani or L. mexicana (NR-51210) at a multiplicity of infection of 10. After infection, cells were washed three times with fresh media to remove extracellular promastigotes and treated with compounds for a 72-hour incubation. BMDM cells were then washed with phosphate buffered saline, fixed with ice-cold methanol, and stained with Giemsa (5% v/v in water). The cover slips with stained cells are mounted onto glass slides and imaged on EVOS XL (100X, Thermo Fisher Scientific). Leishmania amastigotes per 100 macrophages were determined in a blinded manner.

For the molecule `NCC(=O)Nc1ccc(-n2cc(C(F)(F)F)nc2-c2ccc(-c3ccccc3)cc2)cc1` [Compound 50], the “Selectivity 24h LC50 / Lum IC50” value in data set [1] is reported as 16.0. Moreover, the “Therapeutic Index LC50 / IC50” value in data set [2] was 5.
In the case of `CC(C)(C)C#Cc1ccc(-c2cc(C(F)(F)F)nn2-c2ccc(N3CCNCC3)cc2)cc1.Cl` [Compound 44], the “Selectivity 24h LC50 / Lum IC50” value in data set [1] came to 8.1. Also, in data set [2], the “Therapeutic Index LC50 / IC50” value worked out at 14.
In the case of `N#Cc1cccc(CN2CCC(Nc3ccc(-n4nc(C(F)(F)F)cc4-c4ccc(-c5ccc(C(F)(F)F)cc5)cc4)cc3)C2)c1` (centres unmarked) [Compound 53], the “L. donovani Therapeutic Index LC50 / IC50” value in data set [2] is listed as more than 273. In addition, the “L. mexicana Therapeutic Index LC50 / IC50” value in data set [3] is more than 428.
For the molecule `O=C(Nc1ccc(-n2cc(C(F)(F)F)nc2-c2ccc(-c3ccccc3)cc2)cc1)C1CCN(Cc2ccccc2)C1` (centres unmarked) [Compound 86], the “Selectivity 24h LC50 / Lum IC50” value in data set [1] is 16.0. Also, in data set [2], the “Therapeutic Index LC50 / IC50” value came out at 14.
The corresponding values for `Oc1ccccc1CN1CCC(Nc2ccc(-n3nc(C(F)(F)F)cc3-c3ccc(-c4ccc(C(F)(F)F)cc4)cc3)cc2)C1` (centres unmarked) [Compound 91] are more than 36.1 and 22.
Taken in the same sequence, the figures for `FC(F)(F)c1ccc(-c2nc(C(F)(F)F)cn2-c2ccc(NC3CCNCC3)cc2)cc1` [Compound 408] were 17.0 and 10.
Taken in the same sequence, the figures for `CC(C)(C)OC(=O)NC1CCN(c2ccc(-n3nncc3-c3ccc(C(F)(F)F)cc3)cc2)C1` (centres unmarked) [Compound 133] were 32.5 and 20.
For `O=C(CNCc1cccc(F)c1)Nc1ccc(-n2cc(C(F)(F)F)nc2-c2ccc(-c3ccc(C(F)(F)F)cc3)cc2)cc1` [Compound 197], in data set [2], the “L. donovani Therapeutic Index LC50 / IC50” value is on record as more than 273. In addition, the “L. mexicana Therapeutic Index LC50 / IC50” value in data set [3] is listed as more than 176.
Regarding `Oc1ccc(CNC2CCN(c3ccc(-n4nc(C(F)(F)F)cc4C4CCCCC4)cc3)CC2)cc1` [Compound 319], the “Selectivity 24h LC50 / Lum IC50” value in data set [1] was found to be 8.1. Besides, the “Therapeutic Index LC50 / IC50” value in data set [2] was found to be 2.
Turning to `FC(F)(F)c1ccc(-c2ccc(-c3cc(C(F)(F)F)nn3-c3ccc(NC4CCNC4)cc3)cc2)cc1` (centres unmarked) [Compound 25], in data set [1], the “Selectivity 24h LC50 / Lum IC50” value worked out at 43.8. For the same molecule, the “Therapeutic Index LC50 / IC50” value in data set [2] is 2.
Regarding `N#Cc1ccc(CNCC(=O)Nc2ccc(-n3nc(C(F)(F)F)cc3C3CCCCC3)cc2)cc1` [Compound 354], the “L. donovani Therapeutic Index LC50 / IC50” value in data set [2] is 51. The “L. mexicana Therapeutic Index LC50 / IC50” value in data set [3] was 6.
As for `FC(F)(F)c1ccc(-c2ccc(-c3cc(C(F)(F)F)nn3-c3ccc(NC4CCN(C5CCCCC5)C4)cc3)cc2)cc1` (centres unmarked) [Compound 58], in data set [1], the Selectivity amounted to 1.2.
Regarding `CC(=O)NCCCN1CCC(Oc2ccc(-n3nc(C(F)(F)F)cc3C3CCCCC3)cc2)CC1` [Compound 428], in data set [1], the Selectivity amounted to 1.3.
Take `CC(C)(C)OC(=O)NC1CCN(c2ccc(-n3nc(C(F)(F)F)cc3C(C)(C)C)cc2)C1` (centres unmarked) [Compound 202]: in data set [1], the Selectivity was more than 5.9.
The same measure, in the same setting: with `COc1ccc(CNC2CCN(c3ccc(-n4nc(C(F)(F)F)cc4-c4ccc(-c5ccc(C(F)(F)F)cc5)cc4)cc3)C2)cc1` (centres unmarked) [Compound 14] the figure was less than 5.0; with `O=[N+]([O-])c1ccc(-n2cc(C(F)(F)F)nc2-c2ccc(-c3ccccc3)cc2)cc1` [Compound 32], less than 0.6; with `O=[N+]([O-])c1ccc(-n2cc(C(F)(F)F)nc2-c2ccc(-c3ccc(C(F)(F)F)cc3)cc2)cc1` [Compound 154], 8.9.
On the same count and under the same terms, the same measure for `FC(F)(F)c1ccc(-c2nc(C(F)(F)F)cn2-c2ccc(NC3CCNC3)cc2)cc1` (centres unmarked) [Compound 296]: 4.3; for `FC(F)(F)c1cc(C2CCCCC2)n(-c2ccc(OC3CCNCC3)cc2)n1` [Compound 370]: 7.5.
The same measure, in the same setting: the same measure for `NCCNC1CCN(c2ccc(-n3nc(C(F)(F)F)cc3C3CCCCC3)cc2)CC1` [Compound 418]: 4.2.
Consider `NCC(=O)NC1CCN(c2ccc(-n3nc(C(F)(F)F)cc3-c3ccc(-c4ccc(C(F)(F)F)cc4)cc3)cc2)CC1` [Compound 111], for which, in data set [1], the Selectivity came to 1.8.
For the molecule `Nc1ccc(CNC2CCN(c3ccc(-n4nc(C(F)(F)F)cc4-c4ccc(-c5ccc(C(F)(F)F)cc5)cc4)cc3)C2)cc1` (centres unmarked) [Compound 23], the “Selectivity 24h LC50 / Lum IC50” value in data set [1] worked out at 14.8. For the same molecule, the “Therapeutic Index LC50 / IC50” value in data set [2] is 8.
`Cl.FC(F)(F)c1cc(-c2ccc(-c3ccsc3)cc2)n(-c2ccc(N3CCNCC3)cc2)n1` [Compound 210] returned a Selectivity in data set [1] of 4.3.
On the same count and under the same terms, the same measure for `CC(=O)NCCCOc1ccc(CN2CCC(Oc3ccc(-n4nc(C(F)(F)F)cc4C4CCCCC4)cc3)CC2)cc1` [Compound 430]: less than 1.6; for `CCc1cc(C(F)(F)F)nn1-c1ccc(NC2CCNC2)cc1` (centres unmarked) [Compound 318]: 14.8.
On the same count and under the same terms, the same measure for `Cl.FC(F)(F)c1cc(-c2ccc(C#CC3CC3)cc2)n(-c2ccc(N3CCNCC3)cc2)n1` [Compound 42]: 0.2; for `NC1CCN(C(=O)c2ccc(-n3cc(C(F)(F)F)nc3-c3ccc(-c4ccc(C(F)(F)F)cc4)cc3)c(F)c2)C1` (centres unmarked) [Compound 199]: 7.2; for `CS(=O)(=O)c1ccc(-n2nc(C(F)(F)F)cc2-c2ccc(-c3ccc(C(F)(F)F)cc3)cc2)cc1` [Compound 179]: less than 4.5.
On the same count and under the same terms, with `NCCN1CCC(Oc2ccc(-n3nc(C(F)(F)F)cc3C3CCCCC3)cc2)CC1` [Compound 416] the figure was 14.2; with `CC(=O)NCCNC1CCN(c2ccc(-n3nc(C(F)(F)F)cc3C3CCCCC3)cc2)CC1` [Compound 419], 7.9.
In turn, `FC(F)(F)c1cc(-c2cccnc2)n(-c2ccc(Br)cc2)n1` [Compound 249] registered a Selectivity in data set [1] of less than 5.0.
On the same count and under the same terms, the same measure for `Cl.FC(F)(F)c1ccc(-c2ccc(-c3cc(C(F)(F)F)nn3-c3ccc(N4CCNCC4)cc3)cc2)cc1` [Compound 208]: 5.4; for `CC(C)(C)OC(=O)NC1CCN(c2ccc(-n3nc(C(F)(F)F)cc3C3CCCCC3)cc2)C1` (centres unmarked) [Compound 230]: less than 1.0; for `NCC(=O)Nc1ccc(-n2cc(C(F)(F)F)nc2-c2ccc(OC(F)(F)F)cc2)cc1` [Compound 299]: less than 3.2.
On the same count and under the same terms, with `CC(C)(C)c1cc(C(F)(F)F)nn1-c1ccc(N2CCC(N)C2)cc1` (centres unmarked) [Compound 203] the figure was 4.1; with `NC1CCN(c2ccc(-n3nc(C(F)(F)F)cc3-c3ccc(F)cc3)cc2)C1` (centres unmarked) [Compound 248], 5.6.
Same read-out and setting: the same measure for `FC(F)(F)c1ccc(-c2ccc(-c3cc(C(F)(F)F)nn3-c3ccc(NC4CCN(Cc5ccccc5)CC4)cc3)cc2)cc1` [Compound 115]: 1.8; for `FC(F)(F)c1ccc(-c2ccc(-c3nc(C(F)(F)F)c[nH]3)cc2)cc1` [Compound 75]: less than 4.9; for `FC(F)(F)c1ccc(-c2cnnn2-c2ccc(Br)cc2)cc1` [Compound 131]: less than 3.7.
Regarding `NCCCNC1CCN(c2ccc(-n3nc(C(F)(F)F)cc3C3CCCCC3)cc2)CC1` [Compound 420], the Selectivity in data set [1] was determined as 6.7.
`NC1CCN(c2ccc(-n3nc(C(F)(F)F)cc3-c3ccncc3)cc2)C1` (centres unmarked) [Compound 168] yielded a Selectivity in data set [1] of more than 5.0.
